Results: the NIST ThermoML archive (doi:10.1016/j.jct.2013.10.018)

Details: 101.33 kPa, Liquid; for speed of sound: Sing-around technique in a fixed-path interferometer; for mass density: Vibrating tube method

CCCCOP(=O)(OCCCC)OCCCC [tributyl phosphate]
Details | mass density [kg/m3] | speed of sound [m/s]
298.15 K | 972.77 | 1265
303.15 K | 968.46 | 1248
308.15 K | 964.15 | 1231
313.15 K | 959.84 | 1214
318.15 K | 955.52 | 1198
323.15 K | 951.2 | 1181
